Source: PubChem BioAssay AID624099 (ICCB-Longwood, 2012)
The deposit covers about 21,000 reagents; below is a part drawn at random. 497 of them (2.4%) count as active. 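Higher z means weaker E2 silencing; only reporter increases were scored, and knock-downs that hurt cell survival may mask genuine repressor factors.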 Entries without a mark were called inactive. Reagent sequences are not shown.

Purpose: 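Human genes that papillomavirus E2 requires to repress the HPV18 LCR promoter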 (primary screen)
System: human C33A cervical carcinoma cells (HPV-negative) stably expressing BPV1 E2 and an HPV18 LCR luciferase reporter
Reagents: siRNA pool against human genes, 40 nM
Duration: 72 h
Measurement: 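HPV18 LCR reporter light per well, converted to plate-wise z-scores that exclude control wells, and averaged over triplicate plates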
Reading the numbers: mean z-score and z-score: higher = stronger reporter signal, weaker E2 silencing
Active means: 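Mean z ≥ 2 together with z ≥ 2 in two or more of the three replicates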

The opening 4 entries, to show the layout:
Gene | mean z-score | z-score, replicate A | z-score, replicate B | z-score, replicate C
TSR1 (GeneID 55720) | 0.66 | 0.74 | 0.47 | 0.76
GLMP (GeneID 112770) | -1.06 | -1.09 | -1.15 | -0.93
NOX3 (GeneID 50508) | 3.84 (active) | 4.32 | 3.2 | 4
PCDHB15 (GeneID 56121) | -0.4 | -0.41 | -0.43 | -0.36

Main list, from the first entry:
Gene | mean z-score | z-score, replicate A | z-score, replicate B | z-score, replicate C
TSR1 (GeneID 55720) | 0.66 | 0.74 | 0.47 | 0.76
GLMP (GeneID 112770) | -1.06 | -1.09 | -1.15 | -0.93
NOX3 (GeneID 50508) | 3.84 (active) | 4.32 | 3.2 | 4
PCDHB15 (GeneID 56121) | -0.4 | -0.41 | -0.43 | -0.36
TFF1 (GeneID 7031) | -0.32 | 0.02 | -0.57 | -0.42
ZNF84 (GeneID 7637) | -0.33 | -0.47 | -0.08 | -0.43
SERPINB4 (GeneID 6318) | -0.45 | -0.56 | -0.57 | -0.21
NOA1 (GeneID 84273) | 0.84 | 0.88 | 0.57 | 1.07
TBC1D21 (GeneID 161514) | 0.2 | 0.41 | 0.21 | -0.02
LOC389275 (retired record) (GeneID 389275) | 0.29 | -0.15 | 0.31 | 0.7
DSCR8 (GeneID 84677) | 0.8 | 0.27 | 1.09 | 1.04
LINC02874 (GeneID 283403) | 0.18 | -0.07 | 0.45 | 0.18
LCTL (GeneID 197021) | -0.53 | -0.41 | -0.81 | -0.38
LRRC63 (GeneID 220416) | 0.79 | 0.88 | 0.53 | 0.96
LOC389742 (retired record) (GeneID 389742) | 0.18 | 0.27 | 0.44 | -0.18
RIMKLA (GeneID 284716) | -1.03 | -0.99 | -0.77 | -1.33
KCNRG (GeneID 283518) | -0.45 | -0.66 | -0.3 | -0.38
GPRIN3 (GeneID 285513) | 0.45 | 0.39 | 0.54 | 0.41
PAM16 (GeneID 51025) | 0.26 | 0 | 0.19 | 0.6
EMP2 (GeneID 2013) | 0.19 | 0.24 | 0.12 | 0.21
CDKN1A (GeneID 1026) | 0.47 | 0.46 | 0.61 | 0.33
WNT3A (GeneID 89780) | -0.91 | -0.91 | -1.08 | -0.75
ADH4 (GeneID 127) | -1.03 | -1.19 | -1.04 | -0.88
CUBN (GeneID 8029) | 0.7 | 0.77 | 0.66 | 0.68
PRR34 (GeneID 55267) | 0.64 | 0.48 | 0.22 | 1.21
DAPK3 (GeneID 1613) | 0.59 | 0.55 | 0.63 | 0.58
ZNF706 (GeneID 51123) | 0.42 | -0.08 | 0.81 | 0.53
LOC401215 (retired record) (GeneID 401215) | 0.06 | 0.23 | -0.09 | 0.03
AGRN (GeneID 375790) | 1 | 0.79 | 1.42 | 0.81
CNKSR3 (GeneID 154043) | -0.42 | 0.07 | -0.55 | -0.77
RPL10P17 (GeneID 390998) | -0.79 | -0.84 | -0.67 | -0.84
NPHS2 (GeneID 7827) | -0.79 | -0.89 | -0.76 | -0.71
USP48 (GeneID 84196) | 2.73 (active) | 3.12 | 2.03 | 3.05
NUDT4 (GeneID 11163) | 0.02 | 0.4 | -0.26 | -0.07
CITED1 (GeneID 4435) | -0.09 | -0.38 | -0.05 | 0.14
OPA1 (GeneID 4976) | 0.13 | 0.04 | 0.07 | 0.28
GAPT (GeneID 202309) | 0.74 | 0.28 | 1.14 | 0.8
AKAP5 (GeneID 9495) | -0.09 | -0.23 | -0.03 | 0
EXOC3L4 (GeneID 91828) | 0.95 | 0.85 | 0.8 | 1.19
KRT1 (GeneID 3848) | -1.04 | -0.77 | -1.11 | -1.23
TLR3 (GeneID 7098) | 0.26 | 0.17 | 0.42 | 0.19
RALGAPA2 (GeneID 57186) | -0.32 | -0.46 | -0.17 | -0.33
CD74 (GeneID 972) | -0.26 | -0.27 | -0.37 | -0.14
CACNG3 (GeneID 10368) | -0.23 | -0.17 | -0.2 | -0.32
ANAPC4 (GeneID 29945) | -0.2 | -0.06 | -0.36 | -0.19
ZCCHC4 (GeneID 29063) | -0.22 | -0.64 | -0.38 | 0.34
CEP19 (GeneID 84984) | -0.28 | -0.19 | -0.29 | -0.38
AKR1E2 (GeneID 83592) | 0.91 | 0.98 | 0.86 | 0.87
MUC21 (GeneID 394263) | 0.82 | 0.63 | 1.11 | 0.72
CCDC124 (GeneID 115098) | -0.97 | -1.3 | -1.03 | -0.57
LOC339782 (retired record) (GeneID 339782) | -0.48 | -0.44 | -0.46 | -0.54
APRT (GeneID 353) | -0.67 | -0.56 | -0.81 | -0.64
MAFA (GeneID 389692) | 0.8 | 0.21 | 1.48 | 0.71
WIF1 (GeneID 11197) | -0.03 | -0.17 | 0.17 | -0.08
PAN3 (GeneID 255967) | 0.79 | 1.04 | 0.61 | 0.73
DUSP28 (GeneID 285193) | 2.36 (active) | 2.18 | 2.42 | 2.48
SPATA31H1 (GeneID 84226) | -0.24 | -0.41 | -0.07 | -0.25
